Measured values from several laboratories, pooled; numbers as filed in NIAID ChemDB.

Common to all: toxicity to cultured cells; cell line: HEL; endpoint: CC50

CCn: concentration that lowers growth or viability of the cells by n%. An empty or dashed field is not shown. Neighbouring rows are from separate reports.

SMILES,method,value
COc1cc([C@@H]2c3cc4c(cc3[C@@H](Nc3ccc(N)cc3)[C@H]3COC(=O)[C@]23F)OCO4)cc(OC)c1O,,7.5 µM
Cc1c(O)c(=O)ccn1[C@H]1CS[C@@H](CO)O1,,>100 µM
Cc1ccc(C)c(CS(=O)(=O)c2cccc(Cl)[n+]2[O-])c1,,4 µg/mL
O=C(NC1CCCC1)[C@H](Cc1ccccc1)NC(=O)n1nnc2ccccc21,,15.5 µg/mL
Nc1ncnc2c1ncn2C[C@@H](CO)OCP(=O)(O)O,,62 µM
Cc1ccc(C)c(C(Cc2ccccc2)Sc2cccc[n+]2[O-])c1,,1.6 µg/mL
CCCCCCCOCCc1cc2cn([C@H]3C[C@H](O)[C@@H](CO)O3)c(=O)nc2o1,,>200 µM
N#CC(c1ccc(F)cc1)S(=O)c1cccc[n+]1[O-],,0.28 µg/mL
O=c1[nH]c(=O)n([C@H]2C[C@H](O)[C@@H](CO)O2)cc1C#CCCCCCCCCCI,,68 µM
N#CC1C(c2ccccc2)Nc2ccccc2S1(=O)=O,,>50 µg/mL
Cc1ccc(C)c(C(Sc2cccc[n+]2[O-])c2ccccc2)c1,,>20 µg/mL
Nc1cc2c(=O)c(C(=O)O)cn(C3CC3)c2cc1N1CCN(c2nc3ccccc3s2)CC1,,0.009 µg/mL
O=c1nc2occc2cn1COCCO,,>200 µM
CC1(C)[C@@H](CCO)C[C@H]1n1nnc2c(Cl)nc(N)nc21,,>50 µg/mL
C[C@@H](Cn1cnc2c(=O)[nH]c(N)nc21)OCP(=O)(O)O,,222 µM
CC1=C[C@H](n2ccc(N)nc2=O)C[C@@]1(CO)c1ccccc1,,>100 µg/mL
Nc1ccn(C[C@@H](CO)OCP(=O)(O)O)c(=O)n1,,>250 µM
CCCC(Sc1cccc[n+]1[O-])c1cc(C)ccc1C,,1.3 µg/mL
CCCCc1cc2cn(C(CC)CC)c(=O)nc2o1,,>200 µM
Nc1ncnc2c1ncn2C[C@@H](CF)OCP(=O)(O)O,,>150 µM
O=c1[nH]c(=O)n([C@H]2C[C@H](O)[C@@H](CO)O2)cc1C1CC1,,>200 µM
CCCCc1cc2cn(COCCO)c(=O)nc2[nH]1,,>200 µM
Cc1ccc(C)c(C(Cl)S(=O)(=O)c2cc(C)cc[n+]2[O-])c1,,>100 µg/mL
Nc1ncnc2c1ncn2C[C@@H](CO)OCP(=O)(O)O,,75 µM
CCCCCCCCCCc1cc2cn(COCCO)c(=O)nc2o1,,>200 µM
Nc1nc2c(ncn2COCCO)c(=O)[nH]1,,533 µM
Nc1nc2c(ncn2CCC(CO)CO)c(=O)[nH]1,,>926 µM
O=C(COc1cccc2ccccc12)NN=Cc1c(O)ccc2ccccc12,,1.94 µg/mL
CCCCCCc1cc2cn([C@H]3C[C@H](O)[C@@H](CO)O3)c(=O)nc2[nH]1,,>50 µM
O=c1[nH]c(=O)n([C@H]2C[C@H](O)[C@@H](CO)O2)cc1I,,>50 µg/mL
CCCCCCCCCCc1cc2cn(Cc3ccc(OC)cc3)c(=O)nc2o1,,>200 µM
Nc1nc2c(ncn2C[C@@H](CO)OCP(=O)(O)O)c(=O)[nH]1,,14 µM
CC1(C)[C@@H](CCO)C[C@H]1n1cnc2c(N)nc(N)nc21,,>50 µg/mL
Cc1c(O)c(=O)ccn1[C@@H]1CC[C@@H](CO)O1,,>900 µM
Nc1nc2c(ncn2C[C@@H](CF)OCP(=O)(O)O)c(=O)[nH]1,,>150 µM
CCCCCCCc1cc2cn([C@H]3C[C@H](O)[C@@H](CO)O3)c(=O)nc2o1,,>50 µM
C[C@H](Cn1cnc2c(N)nc(N)nc21)OCP(=O)(O)O,,>150 µM
O=c1[nH]c(=O)n([C@H]2C[C@H](O)[C@@H](CO)S2)cc1C1CCCCC1,,>150 µM
Cc1ccc(C)c(C(C(N)=O)S(=O)(=O)c2cccc[n+]2[O-])c1,,15.6 µg/mL
C=C(C)[C@H]1C/C=C2\C(=O)O[C@H](C[C@@]3(C)CC(=O)[C@@H](CC(=O)C1)O3)[C@H]2O,MTT,1.9 µg/mL
CCCCCOc1ccc(-c2cc3cn([C@H]4C[C@H](O)[C@@H](CO)O4)c(=O)nc3o2)cc1,,>200 µM
Nc1ncnc2c1ncn2[C@@H]1C=C(CCl)[C@@H](O)[C@H]1O,,9 µg/mL
COC(=O)/C1=C/CC[C@](C)(O)[C@@H]2CC[C@@](C)(O2)C2C(=O)C(=C(C)[C@H]2O)CC1,,>50 µg/mL
Nc1ncnc2c1ncn2[C@@H]1C=C(CO)[C@@H](O)[C@H]1O,,20 µg/mL
Nc1nc2c(ncn2CCC(CO)CO)c(=O)[nH]1,,>790 µM
Cn1cc(C(=O)O)c(=O)c2cc(N)c(N3CCN(c4cnccn4)CC3)cc21,,5.4 µg/mL
CCCCCCCCc1cc2cn([C@H]3C[C@H](O)[C@@H](CO)O3)c(=O)nc2[nH]1,,>50 µM
C[C@H](NC(=O)[C@H](Cc1ccccc1)NC(=O)[C@H](C)NC(=O)[C@]1(Cc2ccccc2)CCN1C(=O)OCc1ccccc1)NC(C)(C)C,,>100 µM
O=c1[nH]c(=O)n([C@@H]2O[C@H](CO)[C@@H](O)[C@@H]2O)cc1/C=C/Br,,1023 µM
O=c1nc2oc(CCCCCCCCCF)cc2cn1[C@H]1C[C@H](O)[C@@H](CO)O1,,200 µM
O=C(NC(c1ccccc1)c1ccccc1)[C@H](Cc1ccccc1)NC(=O)n1nnc2ccccc21,,17.3 µg/mL
Cc1ccc(C)c(CS(=O)c2ccc(Cl)c[n+]2[O-])c1,,14 µg/mL
Cc1c(S(=O)(=O)c2ccc(Cl)cc2)c(NC(=O)C(F)(F)F)n(Cc2ccccc2)c1C,,28 µg/mL
CC(C)(C)c1cn([C@H]2C[C@H](O)[C@@H](CO)O2)c(=O)[nH]c1=O,,>200 µM
Nc1nc2c(ncn2COC(CO)CO)c(=O)[nH]1,,394 µM
O=S(=O)(Cc1c(Cl)c(Cl)c(Cl)c(Cl)c1Cl)c1cccc[n+]1[O-],,1.2 µg/mL
CC(C)C[C@H](NC(=O)n1nnc2ccccc21)C(=O)NC1CCCC1,,87.3 µg/mL
COc1cc([C@@H]2c3cc4c(cc3[C@@H](O)[C@H]3COC(=O)[C@]23F)OCO4)cc(OC)c1OC,,5 µM
N#C/C(=C/c1ccc(Cl)cc1Cl)Sc1cccc[n+]1[O-],,3.5 µg/mL
O=c1[nH]c(=O)n([C@@H]2CO[C@H](CO)[C@@H](O)C2)cc1I,,>50 µg/mL
CCCCCCCCCCc1cc2cn(CCCC)c(=O)nc2o1,,>200 µM
CCCCCCc1cc2cn([C@H]3C[C@H](O)[C@@H](CO)O3)c(=O)nc2s1,,>200 µM
Nc1nc2c(ncn2[C@@H]2CO[C@H](CO)[C@@H](O)C2)c(=O)[nH]1,,20 µg/mL
C#Cc1cn(COCCO)c(=O)[nH]c1=O,,>200 µM
O=C(O)P(=O)(O)O,,667 µM
Nc1nc(N)c2ncn(C[C@H](CF)OCP(=O)(O)O)c2n1,,>600 µM
C#C[C@H](O)C1=C[C@@H](n2cnc3c(N)ncnc32)[C@H](O)[C@@H]1O,,>50 µg/mL
O=C(COc1cccc2ccccc12)NN=Cc1ccc(O)cc1,,60.6 µg/mL
Cc1cc(C)c(CS(=O)c2cccc[n+]2[O-])c(C)c1,,12 µg/mL
COc1ccc(-c2cc3cn([C@H]4C[C@H](O)[C@@H](CO)O4)c(=O)nc3o2)cc1,,>200 µM
C[C@H](Cn1cnc2c(=O)[nH]c(N)nc21)OCP(=O)(O)O,,>150 µM
O=c1[nH]c(=O)n([C@H]2C[C@H](O)[C@@H](CO)O2)cc1I,,0.2 µg/mL
Cc1ccc(C)c(CSc2ncccc2O)c1,,16 µg/mL
O=C(COc1cccc2ccccc12)NN=Cc1ccccc1O,,3.57 µg/mL
CCCCCCCc1cc2cn(CCCCC)c(=O)nc2o1,,>200 µM
CC(C)(C)c1cn([C@H]2C[C@H](O)[C@@H](CO)S2)c(=O)[nH]c1=O,,>150 µM
O=C(O)P(=O)(O)O,,>666 µM
Nc1cc2c(=O)c(C(=O)O)cn(C3CC3)c2cc1N1CCN(c2cccc(C(F)(F)F)c2)CC1,,2.3 µg/mL
Cc1cn(C2OC(CO)C(O)C2(F)F)c(=O)[nH]c1=O,,100 µM
N#CC1C(c2ccccc2)Nc2sccc2S1(=O)=O,,>50 µg/mL
COc1cc([C@@H]2c3cc4c(cc3[C@@H](Nc3ccc(F)cc3)[C@H]3COC(=O)[C@]23F)OCO4)cc(OC)c1O,,6.1 µM
CCCCCCCCCCCCc1cc2cn([C@H]3C[C@H](O)[C@@H](CO)O3)c(=O)nc2[nH]1,,>200 µM
O=C(COc1cccc2ccccc12)NN=Cc1ccccc1,,64.5 µg/mL
CCCCCCc1cc2cn([C@H]3C[C@H](O)[C@@H](CO)O3)c(=O)nc2[nH]1,,>50 µM
O=S(=O)(Cc1ccccc1Oc1ccccc1)c1cccc[n+]1[O-],,10 µg/mL
CC[C@H](O)C1=C[C@@H](n2cnc3c(N)ncnc32)[C@H](O)[C@@H]1O,,>50 µg/mL
C=CC1=C[C@@H](n2cnc3c(N)ncnc32)[C@H](O)[C@@H]1O,,100 µg/mL
CC(=NNC(=O)COc1cccc2ccccc12)c1ccc(Cl)cc1,,7.1 µg/mL
CCCCCCCCCCc1cc2cnc(OCCC)nc2o1,,126 µM
CCCc1cn([C@H]2C[C@H](O)[C@@H](CO)O2)c(=O)[nH]c1=O,,>200 µM
COc1ccc(C)cc1CSc1cccc[n+]1[O-],,31 µg/mL
Nc1ccn(C[C@@H](CO)OCP(=O)(O)O)c(=O)n1,,332 µM
O=c1[nH]c(=O)n([C@H]2C[C@H](O)[C@@H](CO)O2)cc1C#CCCCCCCCCCF,,116 µM
CCCCCn1cc2cc(CCCC)oc2nc1=O,,>200 µM
CCCCCCCCCc1cc2cn([C@H]3C[C@H](O)[C@@H](CO)O3)c(=O)nc2o1,,>50 µM
CC1=CC(CO)(CO)C[C@H]1n1cnc2c(N)ncnc21,,>100 µg/mL
CC(C)C1NC(=O)N(C2CCCC2)C1=O,MTT,>50 µg/mL
CC1(C)[C@@H](CCO)C[C@H]1n1nnc2c(N)nc(N)nc21,,30 µg/mL
CCCCCCCCCCc1cc2cn([C@H]3C[C@H](O)[C@@H](CO)O3)c(=O)nc2o1,,>200 µM
Cc1ccc(C)c(C(Cl)S(=O)(=O)c2c(Cl)ccc[n+]2[O-])c1,,15 µg/mL
Nc1nc(N)c2ncn(C[C@H](CO)OCP(=O)(O)O)c2n1,,>150 µM
Cc1ccc(CS(=O)(=O)c2c(C)ccc[n+]2[O-])c(C)c1,,11 µg/mL
Nc1ncnc2c1ncn2[C@@H]1CO[C@H](CO)[C@@H](O)C1,,>50 µg/mL
Cc1ccc[n+]([O-])c1S(=O)(=O)C(C)c1ccccc1Cl,,38 µg/mL
Nc1nc2c(ncn2CC[C@@H](O)CO)c(=O)[nH]1,,800 µM
O=[N+]([O-])c1ccc(O)c(CSc2cccc[n+]2[O-])c1,,>20 µg/mL
O=C(COc1cccc2ccccc12)NN=Cc1ccccc1Br,,100 µg/mL

For reference, 10 entries again:

SMILES | method | value
CCCc1cn([C@H]2C[C@H](O)[C@@H](CO)O2)c(=O)[nH]c1=O |  | >200 µM
Nc1cc2c(=O)c(C(=O)O)cn(C3CC3)c2cc1N1CCN(c2cccc(C(F)(F)F)c2)CC1 |  | 2.3 µg/mL
Nc1ncnc2c1ncn2[C@@H]1CO[C@H](CO)[C@@H](O)C1 |  | >50 µg/mL
CCCCCCCCCCc1cc2cn(Cc3ccc(OC)cc3)c(=O)nc2o1 |  | >200 µM
Nc1cc2c(=O)c(C(=O)O)cn(C3CC3)c2cc1N1CCN(c2nc3ccccc3s2)CC1 |  | 0.009 µg/mL
CCCCCCCCCCCCc1cc2cn([C@H]3C[C@H](O)[C@@H](CO)O3)c(=O)nc2[nH]1 |  | >200 µM
O=C(COc1cccc2ccccc12)NN=Cc1ccccc1O |  | 3.57 µg/mL
N#CC(c1ccc(F)cc1)S(=O)c1cccc[n+]1[O-] |  | 0.28 µg/mL
N#C/C(=C/c1ccc(Cl)cc1Cl)Sc1cccc[n+]1[O-] |  | 3.5 µg/mL
O=[N+]([O-])c1ccc(O)c(CSc2cccc[n+]2[O-])c1 |  | >20 µg/mL